PubChem BioAssay AID1259309 (ICCB-Longwood Screening Facility, Harvard Medical School, 2017)
The entries are a selection whose mix differs from that of the whole data set. The source made the active and inactive calls. Rule as the data show it: active = growth inhibition above about 68%; inactive = the rest.

Assay: growth inhibition of ugtP-null S. aureus, primary screen, RN4220 ugtP deletion, OD600 (AID 1259309);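 also: plate controls were untreated wells for no effect and antibiotic for full effect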
Conditions: 16 h, active compounds read high

SMILES | growth inhibition
COc1cc(C(=O)NCC2(N3CCOCC3)CCCCC2)cc(OC)c1C | inactive: 0.717%
O=C(NCC1(N2CCOCC2)CCCCC1)c1cc(Br)ccc1Cl | inactive: 2.46%
COc1ccc(C(=O)NCC2(N3CCOCC3)CCCCC2)cc1OC | inactive: 8.6%
CCOC(=O)N1CCC(Nc2ccc(C)cc2)CC1 | inactive: 11.8%
CCc1cc(C(=O)NCC2(N3CCCCC3)CCCCC2)sc1C | inactive: 10.4%
O=C(OC1CN2CCC1CC2)C1c2ccccc2C=Cc2ccccc21 (stereo not given) | inactive: 0.116%
N#Cc1ccc(C(=O)NCC2(N3CCCCC3)CCCCC2)cc1 | inactive: 2.05%
CC(C)(C)OC(=O)N1CCC(N(C(=O)c2ccccc2)c2ccc(Cl)cc2)CC1 | inactive: 29%
CN(C)C1(CNC(=O)c2cccc(C#N)c2)CCCCC1 | inactive: -0.268%
CCCN1CCC(Nc2cc(OC)cc(OC)c2)CC1 | inactive: 6.13%
c1ccc(CN2CCC(Nc3ccccc3)CC2)cc1 | inactive: 6.85%
CC(=O)N(c1ccccc1)C1CCNCC1 | inactive: 3.38%
COc1cc(OC)cc(C(=O)NCC2(N3CCCCC3)CCCCC2)c1 | inactive: 7.08%
Fc1ccccc1NC1CCN(Cc2ccccc2)CC1 | inactive: 1.4%
Cc1ccc(C(=O)NCC2(N3CCCCC3)CCCCC2)o1 | inactive: 2.63%
Cc1ccc(NC2(C#N)CCN(Cc3ccccc3)CC2)cc1 | inactive: -0.433%
CCN1CCC(Nc2cccc(F)c2)CC1 | inactive: 6.79%
Cc1ccccc1NC1(C#N)CCN(Cc2ccccc2)CC1 | inactive: 3.25%
CN(C)c1ccc(C(=O)NCC2(N3CCCCC3)CCCCC2)cc1 | inactive: 6.15%
Cn1c(=O)[nH]cc(N(CCCl)CCCl)c1=O | inactive: 1.86%
O=C(NCC1(N2CCCCC2)CCCCC1)c1ccco1 | inactive: 2.57%
CN1CCC(Nc2ccc(F)c(Cl)c2)CC1 | inactive: -3.36%
CCOc1ncccc1C(=O)NCC1(N2CCOCC2)CCCCC1 | inactive: 2.85%
O=C(O)C1(Nc2ccccc2)CCN(Cc2ccccc2)CC1 | inactive: 5.47%

SMILES | growth inhibition
CC(C)(C)OC(=O)N1CCC(Nc2ccccc2)CC1 | inactive: -10.1%
CCCOc1ccc(C(=O)NCC2(N(C)C)CCCCC2)cc1 | inactive: 13.9%
COc1cccc(C(=O)N(c2cc(C)cc(C)c2)C2CCN(C(=O)OC(C)(C)C)CC2)c1 | inactive: -2.79%
COc1cc(OC)cc(C(=O)NCC2(N3CCOCC3)CCCCC2)c1 | inactive: 2.9%
CN1CCC(Nc2ccc(Cl)cc2)CC1 | inactive: 3.42%
CC(C)(C)OC(=O)N1CCC(N(C(=O)c2ccccc2)c2ccc(F)cc2)CC1 | inactive: 4.85%
COc1ccc(C(=O)NCC2(N3CCCCC3)CCCCC2)c(OC)c1OC | inactive: -11.2%
COc1ccc(C(=O)NCC2(N3CCCCC3)CCCCC2)cc1 | inactive: 16%
O=C(NCC1(N2CCCCC2)CCCCC1)c1cccs1 | inactive: 2.54%
O=C(NCC1(N2CCCCC2)CCCCC1)c1ccc(=O)[nH]c1 | inactive: 5.67%
Cc1cccc(NC2(C#N)CCN(Cc3ccccc3)CC2)c1 | inactive: 4%
CSc1ccccc1C(=O)NCC1(N2CCCCC2)CCCCC1 | inactive: 11.4%
Cc1cc(C)cc(N(C(=O)c2ccccc2)C2CCN(C(=O)OC(C)(C)C)CC2)c1 | inactive: 20.7%
O=C(NCC1(N2CCCCC2)CCCCC1)c1ccc(Cl)nc1 | inactive: 0.438%
O=C(NCC1(N2CCOCC2)CCCCC1)c1cc2ccccc2o1 | inactive: 5.87%
COc1ccc(Cl)cc1C(=O)NCC1(N2CCOCC2)CCCCC1 | inactive: -2.8%
O=C(NCC1(N2CCCCC2)CCCCC1)c1ccc(Cl)s1 | inactive: 8.16%
N#CC1(Nc2ccccc2)CCN(Cc2ccccc2)CC1 | inactive: 0.237%
O=C(OC1CN2CCC1CC2)C1c2ccccc2Oc2ccccc21 (stereo not given) | inactive: 8.04%
CCOC(=O)N1CCC(Nc2ccc(OC)cc2)CC1 | inactive: 4.42%
CCOc1ccc(C)cc1CN(CCCl)CCCl | inactive: 3.26%
CCOC(=O)N1CCC(Nc2ccc(F)cc2)CC1 | inactive: 10.6%
COc1ccc(NC2CCN(CCc3ccccc3)CC2)c(OC)c1 | inactive: 7.53%
CCCCOc1ccc(C(=O)NCC2(N3CCOCC3)CCCCC2)cc1 | inactive: 4.92%

SMILES | growth inhibition
O=P1(N(CCCl)CCCl)SCCCS1 | inactive: 4.09%
O=C(NCC1(N2CCCCC2)CCCCC1)c1ccc(F)cc1 | inactive: 2.93%
CCOC(=O)N1CCC(Nc2cccc(C)c2)CC1 | inactive: 0.945%
COc1cc(C(=O)NCC2(N(C)C)CCCCC2)ccc1OC(F)F | inactive: 1.23%
O=C(NCC1(N2CCCCC2)CCCCC1)c1ccc(OC(F)F)cc1 | inactive: -2.47%
N#CC1(Nc2ccccc2)CCN(CCc2ccccc2)CC1 | inactive: 1.82%
CCN1CCC(Nc2ccc(Cl)cc2)CC1 | inactive: 1.18%
O=C(NCC1(N2CCCCC2)CCCCC1)c1cccc([N+](=O)[O-])c1 | inactive: 9.64%
CSc1ccc(C(=O)NCC2(N3CCOCC3)CCCCC2)cc1 | inactive: 6.38%
O=C(NCC1(N2CCCCC2)CCCCC1)c1cccc(C(F)(F)F)c1 | inactive: 9.02%
O=C(NCC1(N2CCOCC2)CCCCC1)c1cc(=O)[nH]c2ccccc12 | inactive: 6.57%
COc1cc(C(=O)NCC2(N3CCCCC3)CCCCC2)ccc1OC(F)F | inactive: 8.89%
CC(C)c1ccc(C(=O)NCC2(N3CCOCC3)CCCCC2)cc1 | inactive: 9.44%
COc1ccc(NC2CCN(C(=O)OC(C)(C)C)CC2)cc1 | inactive: -9.88%
CN1CCN(CCOC(=O)C(O)(c2ccccc2)c2ccccc2)CC1 | inactive: 2.65%
CC(C)c1ccc(NC2CCN(C(=O)OC(C)(C)C)CC2)cc1 | inactive: 6.46%
CN(C)c1cccc(C(=O)NCC2(N3CCCCC3)CCCCC2)c1 | inactive: 8.62%
COc1ccc(CN(CCCl)CCCl)cc1Cl | inactive: 0.498%
O=C(NCC1(N2CCOCC2)CCCCC1)c1cc(F)c(F)cc1Cl | inactive: 6.13%
COc1cc(OC)c(C(=O)NCC2(N(C)C)CCCCC2)cc1OC | inactive: 7.51%
O=C(NCC1(N2CCCCC2)CCCCC1)c1cncc(Br)c1 | inactive: -3.16%
CCCOc1ccc(C(=O)NCC2(N(C)C)CCCCC2)cc1OC | inactive: 16.8%
